Compound potency records, mixed from different reports. Data source: NIAID ChemDB in PubChem.

All rows: tests in culture; organism: Mycobacterium tuberculosis

ECn: concentration that inhibits the pathogen or its effect by n%. Inhibition is in % at the dose shown (toxicity tests: loss of growth or viability). A number after MIC or MFC names an inhibition level or a share of isolates. An empty or dashed field is not shown. Two numbers with a dash give a range or band. MIC bound comes from a single tested concentration. Conditions beyond the fields shown may differ between rows.

smiles | strain | endpoint | method | tested at | value
C/C=C\C#CC#C/C=C/C(=O)OC | H37Rv | MIC | - | - | 50 µg/mL
NSC(=S)NCc1ccco1 | H37Rv | MIC | BACTEC | - | 32 µg/mL
C/C=C(/C)C(=O)OC/C=C\C#CC#C/C=C\C(=O)OC | H37Rv | MIC | - | - | 25 µg/mL
CS(=O)c1nnc(-c2ccc([N+](=O)[O-])o2)s1 | H37Rv | inhibition | - | 6.25 µg/mL | 100%
CCCCCCCCN1C(=O)C(C)SC12CCCCC2 | H37Ra | EC50 | resazurin | - | <25 µg/mL
COc1ccc(/C=C/C(=O)c2cc3c(cc2O)OC2(CCN(C(=O)OC(C)(C)C)CC2)CC3=O)c(OC)c1 | H37Rv | MIC | agar | - | 25 µg/mL
Cc1ccc(C)c(CSc2nnc(-c3ccc([N+](=O)[O-])o3)s2)c1 | H37Rv | inhibition | - | 6.25 µg/mL | 29%
O=Cc1ccc(OCCCCCCCCCCCOc2ccc(C=O)cc2)cc1 | H37Rv | inhibition | - | 1 µM | 42–54.4%
Cc1ccc(C)n1NC(=O)c1ccc(Br)cc1 | Erdman | MIC | - | - | 32 µg/mL
CN1CCN(Cn2nc(-c3ccncc3)oc2=O)CC1 | H37Rv | MIC | - | - | 2.5 µg/mL
O=c1nc(-c2ccccc2Cl)ss1 | H37Rv | MIC90 | broth dilution | - | 16 µg/mL
CCCCc1ccc(-n2sc3ncc(-c4ccccc4)cc3c2=O)cc1 | H37Rv | MIC bound | resazurin | - | <6.25 µg/mL
CCCCCCCCCCCCCCCCCCCCCCC(=O)OCCc1ccc(OC)cc1 | H37Rv (ATCC 27294) | MIC | - | - | >128 µg/mL
O=CN/N=C\c1cc(C2CCCCC2)nc2ccccc12 | H37Rv | inhibition | BACTEC | 6.25 µg/mL | 0%
CC(=O)Nc1nc([N+](=O)[O-])c(C(C)C)s1 | H37Rv | inhibition | resazurin | 6.25 µg/mL | 5%
CCCCN(CCCC)CCc1c[nH]c2ccccc12 | H37Rv | MIC | resazurin | - | 39 µg/mL
O=C(C[C@@H](O)CCc1ccc(O)c(O)c1)O[C@H]1Cc2c(O)cc(O)cc2O[C@@H]1c1ccc(O)c(O)c1 | H37Rv | MIC | BACTEC | - | ≥12.5 µg/mL
CC(C)[C@H]1CC[C@H]2[C@@H]3C=C[C@]4(C)CC[C@@]3(CC[C@]12C(=O)O)CO4 | H37Rv | MBC | visual reading / absorbance | - | 314 µM
Cc1sc(-c2nsc(=O)o2)cc1[N+](=O)[O-] | H37Rv | MIC99 | broth dilution | - | 4 µg/mL
CC1CCN(Cn2nc(-c3ccncc3)oc2=S)CC1 | H37Rv | MIC | - | - | 20 µg/mL
CC(=O)OCC1=C(C(=O)O)N2C(=O)[C@@H](NC(=O)Cc3cccs3)[C@H]2SC1 | Isolate 5 | MIC | - | - | >16 µg/mL
CC1COc2c(N3CCN(C)CC3)c(F)cc3c(=O)c(C(=O)O)cn1c23 | H37Rv | MIC | - | - | 0.5 µg/mL
Cc1ccc(-n2cc(-c3ccc(Cl)cc3)c3c(N/N=C4\SCC(=O)N4C)ncnc32)cc1 | H37Rv | inhibition | BACTEC | 12.5 µg/mL | 75%
CCCCCCCCCCCCN1C(=O)C(CC(=O)O)SC12CCCCCCC2 | H37Ra | inhibition | resazurin | 25 µg/mL | 96%
COc1cccc2c1C(=O)c1c(O)c3c(c(O)c1C2=O)CC(O)(C(C)=O)CC3OC1CC(NCC2(O)OC(C(=O)NCCCN(C)C)C(O)C2O)C(O)C(C)O1 | H37Rv | MIC | - | - | 12.5 µg/mL
COc1ccc(OC)c(-c2nsc(=O)o2)c1 | H37Rv | MIC99 | broth dilution | - | 32 µg/mL
COc1cc(/C=C2\N=C(c3ccccc3)OC2=O)cc(OC)c1 | H37Rv | MIC bound | BACTEC | - | ≤12.5 µg/mL
O=[N+]([O-])c1ccc(-c2nnc(SCc3ccc(Cl)cc3)s2)o1 | H37Rv | inhibition | - | 6.25 µg/mL | 20%
CCCCCC(CC(=O)N1N=CCCC1C(=O)N[C@H]1COC(=O)C2C[C@@H](C)CNN2C(=O)[C@H](C)NC(=O)[C@@H](CC(C)C)NC1=O)C(=O)O | H37Rv | MIC | - | - | 12.5 µg/mL
Cc1nc([N+](=O)[O-])cn1CC1CO1 | H37Rv | MIC bound | resazurin | - | >6.25 µg/mL
O=c1nc(-c2ccc3ccccc3c2)ss1 | H37Rv | MIC99 | broth dilution | - | 16 µg/mL
NC(=S)NNC(=S)S | EMB-R | MIC | - | - | 12.5 µg/mL
O=CN/N=C/c1ccc2ccccc2n1 | H37Rv | inhibition | BACTEC | 6.25 µg/mL | 12%
CCCCCCCCCCCCCCCCCCCCCCCCC(=O)OCCc1ccc(OC)cc1 | H37Rv (ATCC 27294) | MIC | - | - | >128 µg/mL
O=c1oc(-c2ccncc2)nn1CN1CCCCC1 | H37Rv | MIC | - | - | 2.5 µg/mL
CC(C)[C@H]1CC[C@H]2[C@@H]3C=C[C@]4(C)CC[C@@]3(CC[C@]12CO)CO4 | H37Rv | MBC | visual reading / absorbance | - | 20.5 µM
CCCCCCCCCCCCCCCCCCCCCCC(=O)OCCc1ccc(O)cc1 | H37Rv (ATCC 27294) | MIC | - | - | >128 µg/mL
CC(N)C(=O)NC1C(O)OC(CO)C(O)C1O | H37Rv | inhibition | BACTEC | 12.5 µg/mL | -27%
CC1=CC[C@]2(C)CC[C@]3(CO)[C@@H](C(C)C)CC[C@H]3[C@@H]2C=C1 | H37Rv | MBC | visual reading / absorbance | - | 5.4 µM
CCCCCCCCCCCCN1C(=O)C(CC(=O)O)SC12CCNCC2 | H37Ra | inhibition | resazurin | 25 µg/mL | 3%
COc1cccc(/C=C/C(=O)c2cc3c(cc2O)OC2(CCN(C(=O)OC(C)(C)C)CC2)CC3=O)c1 | H37Rv | MIC | agar | - | 25 µg/mL
CC(=O)N/N=C\c1ccnc2ccccc12 | H37Rv | inhibition | BACTEC | 6.25 µg/mL | 26%
CCCCCCCCN1C(=O)CSC12CCCCC2 | H37Ra | EC50 | resazurin | - | <25 µg/mL
CCS(=O)c1nnc(-c2ccc([N+](=O)[O-])o2)s1 | H37Rv | MIC | - | - | 1.56 µg/mL
CCCCCCCCCCCCCCCCCCCCCCCCCC(=O)OCCc1ccc(O)cc1 | H37Rv (ATCC 27294) | MIC | - | - | >128 µg/mL
CC(C)[C@H]1CC[C@H]2[C@@H]3C=C[C@](C)(O)CC[C@]3(C)CC[C@]12CO | H37Rv | MIC | visual reading / absorbance | - | 20.4 µM
COc1ccc(/C=C/C(=O)c2cc3c(cc2O)OC2(CCCCC2)CC3=O)c(OC)c1 | H37Rv | MIC | agar | - | >25 µg/mL
O=c1oc(-c2ccc(Cl)cc2)ns1 | H37Rv | MIC99 | broth dilution | - | 64 µg/mL
O=c1[nH]c2cccnc2[nH]c1=O | H37Rv | inhibition | resazurin | 6.25 µg/mL | -3%
O=c1nc(-c2cccnc2Cl)ss1 | H37Rv | MIC90 | broth dilution | - | 4 µg/mL
CNC(=O)OCC1=CC(=O)C=C(OC)C1=O | H37Rv | MIC | BACTEC | - | ≥12.8 µg/mL
S=c1oc(-c2ccncc2)nn1CN1CCc2ccccc2C1 | H37Rv | MIC | - | - | 40 µg/mL
CCCCCCCCCCCCN1C(=O)C(CC(=O)O)SC12CCN(C(=O)C(N)C(C)CC)CC2 | H37Ra | EC50 | resazurin | - | <25 µg/mL
CC(C)C[C@@H]1NC(=O)[C@H](Cc2c[nH]c3ccccc23)NC(=O)[C@@H](CCCN)NC(=O)[C@H](CC(=O)NCc2ccccc2)NC(=O)[C@H](C(C)C)NC(=O)[C@@H](CC(C)C)NC1=O | H37Rv | MIC | resazurin | - | 5 µM
C=C(C)[C@@H]1CC[C@]2(C)CC[C@]3(C)C(CCC4[C@@]5(C)CCC(OC(=O)/C=C/c6ccc(OC)c(O)c6)C(C)(C)C5CC[C@]43C)C12 | H37Rv ATCC 27294 (drug-susceptible) | MIC | - | - | >100 µg/mL
CCCCCCCCCCCCCCCC1C(N)C(=O)N(C)N1C | H37Rv | inhibition | BACTEC | 12.8 µg/mL | 80%
CC1(C)S[C@@H]2[C@H](NC(=O)[C@H](N)c3ccc(O)cc3)C(=O)N2[C@H]1C(=O)O | H37Rv | MIC | - | - | >16 µg/mL
CCn1cc(C(=O)O)c(=O)c2cc(F)c(N3CCNC(C)C3)c(F)c21 | 79 strains (drug-susceptible) | MIC90 | - | - | 1.02 µg/mL
O=c1oc(-c2ccncc2)nn1CN1CCSCC1 | H37Rv | MIC | - | - | 2.5 µg/mL
O=[N+]([O-])c1ccc(-c2nnc(SCc3ccccc3)s2)o1 | H37Rv | inhibition | - | 6.25 µg/mL | 11%
C[C@@H](O)[C@H]1C(=O)N2C(C(=O)O)=C(SCCN=CN)C[C@H]12 | H37Rv | MIC | - | - | 4 µg/mL
O=C(/C=C/c1ccccc1F)c1cc2c(cc1O)OC1(CCCCC1)CC2=O | H37Rv | MIC | agar | - | 12.5 µg/mL
CCS(=O)(=O)c1nnc(-c2ccc([N+](=O)[O-])o2)s1 | H37Rv | MIC | - | - | 6.25 µg/mL
N#CC1(c2nc3ccccc3o2)C(=O)C(=O)N(c2ccc(Cl)c(Cl)c2)C(=O)C1=O | H37Rv | MIC bound | resazurin | - | <6.25 µg/mL
CCOc1ccc2ccccc2c1C(=O)N[C@@H]1C(=O)N2[C@@H]1SC(C)(C)[C@@H]2C(=O)O | Isolate 1 | MIC | - | - | >16 µg/mL
C=C/C(C)=C/C[C@H]1C(=C)CCC2[C@@](CCCCCCCCCCCCCCCCCCCC)(C(=O)O)CCC[C@@]21C | H37Ra | EC50 | - | - | 4.5 µg/mL
C[C@@H]1CC[C@@]2(NC1)O[C@H]1C[C@H]3[C@@H]4CC=C5C[C@@H](O)CC[C@]5(C)[C@H]4CC[C@]3(C)[C@H]1[C@@H]2C | H37Rv | inhibition | BACTEC | 12.5 µg/mL | -9%
COC(=O)C1[C@@H](OC(=O)CC(CCCCCCCCCCC(C)C)OC(=O)CC(C)CC(=O)OC2OC(C)C(OC)C(OC)C2OC)CN(C)C([C@@H](OC2O[C@H](CN)[C@@H](O)[C@H]2O)C2OC(n3ccc(=O)[nH]c3=O)[C@H](O)[C@@H]2O)C(=O)N1C | 20 clinical strains | MIC | - | - | 6.25–12.5 µg/mL
Cc1ccnc2c1N(C(=O)CNNC(=O)c1ccncc1)C(=O)c1cccnc1N2C1CC1 | H37Rv (ATCC 27294) | EC50 | BACTEC | - | 90 µg/mL
Cc1ccc(C)n1NC(=O)c1ccccc1 | Erdman | MIC | - | - | 16 µg/mL
N#Cc1c(-c2ccc(Cl)cc2)cn2c1[nH]c(=O)c1cc(Br)ccc12 | H37Rv | MIC bound | BACTEC | - | >12.5 µg/mL
CC(C)=CCc1cc(/C=C/C(=O)c2cc(CC=C(C)C)c(O)cc2O)ccc1O | MTCS1 | MIC | resazurin | - | >39.06 µg/mL
N#Cc1c(N2CCN(c3ccc([N+](=O)[O-])cc3)CC2)[n+](=O)c2ccc(Cl)cc2n1[O-] | H37Rv | inhibition | resazurin | 6.25 µg/mL | 100%
C/C=C(/C)C(=O)OC/C=C\C#CC#C/C=C/C(=O)OC | H37Rv | MIC | - | - | >50 µg/mL
COc1ccc(NC(=O)C(=O)c2c(O)c3ccc(O)cc3oc2=O)c([N+](=O)[O-])c1 | H37Rv | inhibition | BACTEC | 12.5 µg/mL | 10%
CC(C)(C)OC(=O)N1CCC2(CC1)CC(=O)c1cc(C(=O)/C=C/c3ccccc3F)c(O)cc1O2 | H37Rv | MIC | agar | - | 3.13 µg/mL
C(=N/Nc1ccccc1)/c1ccnc2ccccc12 | H37Rv | inhibition | BACTEC | 6.25 µg/mL | 0%
Cc1c(N)nc(C(CC(N)=O)NCC(N)C(N)=O)nc1C(=O)NC(C(=O)NC(C)C(O)CC(=O)NC(C(=O)NC(OC1OC(C)C(N)C(O)C1O)C(O)c1nc(-c2nc(C(=O)NCCC[S+](C)C)cs2)cs1)C(C)O)C(OC1OC(CO)C(O)C(O)C1OC1OC(CO)C(O)C(OC(N)=O)C1O)c1cnc[nH]1.Cl.Cl.Cl.[Cl-] | ETA-R | MIC | - | - | 0.4 µg/mL
COc1ccc(CSc2nnc(-c3ccc([N+](=O)[O-])o3)s2)cc1 | H37Rv | inhibition | - | 6.25 µg/mL | 0%
Fc1cccc(N/N=C\c2cc(C3CCCCC3)nc3ccccc23)c1 | H37Rv | inhibition | BACTEC | 6.25 µg/mL | 99%
CN1C(=O)CCCCCCCCCCSc2ccccc21 | H37Rv | MIC bound | BACTEC | - | >12.5 µg/mL
Fc1ccc(N/N=C/c2ccc3ccccc3n2)cc1 | H37Rv | inhibition | BACTEC | 6.25 µg/mL | 94%
CCCCCCCCCCCCCCCC(=O)OCCc1ccc(O)cc1 | H37Rv (ATCC 27294) | MIC | - | - | >128 µg/mL

A second listing of 7 rows from above:

smiles | strain | endpoint | method | tested at | value
CCCCCCCCCCCCN1C(=O)C(CC(=O)O)SC12CCN(C(=O)C(N)C(C)CC)CC2 | H37Ra | EC50 | resazurin | - | <25 µg/mL
COc1cc(/C=C2\N=C(c3ccccc3)OC2=O)cc(OC)c1 | H37Rv | MIC bound | BACTEC | - | ≤12.5 µg/mL
CNC(=O)OCC1=CC(=O)C=C(OC)C1=O | H37Rv | MIC | BACTEC | - | ≥12.8 µg/mL
CCCCCCCCCCCCCCCCCCCCCCC(=O)OCCc1ccc(O)cc1 | H37Rv (ATCC 27294) | MIC | - | - | >128 µg/mL
Cc1sc(-c2nsc(=O)o2)cc1[N+](=O)[O-] | H37Rv | MIC99 | broth dilution | - | 4 µg/mL
COc1cccc2c1C(=O)c1c(O)c3c(c(O)c1C2=O)CC(O)(C(C)=O)CC3OC1CC(NCC2(O)OC(C(=O)NCCCN(C)C)C(O)C2O)C(O)C(C)O1 | H37Rv | MIC | - | - | 12.5 µg/mL
COC(=O)C1[C@@H](OC(=O)CC(CCCCCCCCCCC(C)C)OC(=O)CC(C)CC(=O)OC2OC(C)C(OC)C(OC)C2OC)CN(C)C([C@@H](OC2O[C@H](CN)[C@@H](O)[C@H]2O)C2OC(n3ccc(=O)[nH]c3=O)[C@H](O)[C@@H]2O)C(=O)N1C | 20 clinical strains | MIC | - | - | 6.25–12.5 µg/mL